PubChem BioAssay AID504761 | Drosophila RNAi Screening Center – 2011
The deposit covers about 22,000 reagents; below is an unselected part of those that have a named target and a result. In the full data, 116 (0.52%) are marked active. 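Calls depend on retest data that are not deposited; infection was ranked per plate without normalising between plates; the unit of the infection score is not given.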 Raw values vary from plate to plate and are shown uncorrected. Unmarked entries are inactive. A plus sign joins genes that one reagent is predicted to hit. Not given: the amount of reagent, the time to read-out.

- Test: 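Fly genes whose silencing reduces dengue virus type 2 infection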 (primary screen)
- Cell system: D.Mel-2 cells from Drosophila
- Reagents: long dsRNA against Drosophila genes
- Treatment: infection with dengue virus type 2; dose and infection time not stated
- Measurement: 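Cells stained for dengue envelope protein and imaged; percent of infected cells per well on duplicate plates, ranked by infection, with stained nuclei counted for cell number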
- Direction: infection score: higher = more virus-infected cells; cell count: higher = more cells in the well
- Rule for the call: 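Very low infection ranking in both replicate wells (chance probability at most 0.065), then a retest showing infection dropped 1.5-fold or more at p below 0.05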
- Meaning of the calls: active = confirmed: knock-down lowers infection; inactive = not picked or not confirmed

target	amplicon	infection score, replicate 1	infection score, replicate 2	cell count, replicate 1	cell count, replicate 2
CG14950 (retired record)	DRSC08409	1.24	30.6	6066	4709
Cpsf160	DRSC05968	7.57	9.34	5750	6039
Drsl2	DRSC08160	2.06	3.1	6509	3649
Drsl2	DRSC25541	3.71	5.26	6448	6403
ND-B14.5A	DRSC18500	2.97	7.27	6724	2133
Vps50	DRSC06910	14.6	10.2	3952	2562
Caf1-55	DRSC16596	6.91	27.9	1895	3436
cyp33 + CG34194	DRSC05666	2.13	4.84	6014	4858
snRNP-U1-C	DRSC15804	8.54	9.3	3196	3711
CG15027	DRSC19608	3.15	2.85	6547	6922
Prosalpha6	DRSC03401	1.89	0.55	1537	1816
CG15459	DRSC20530	6.54	6.19	6041	6345
CG15459	DRSC21383	2.8	2.64	5929	6059
CG15459	DRSC27861	0.84	16.9	6090	5045
CG7079	DRSC16192	5.99	5.71	6392	6273
CG7079	DRSC29827	13.1	4.09	6762	6161
PPO1	DRSC05929	16.6	21	5587	5292
Or49b	DRSC07494	9.25	12.2	6779	6818
Saysd1	DRSC14664	4.72	12.7	6310	6528
Sec61alpha	DRSC03256	0.39	3.57	6189	2861
CG7906	DRSC10928	5.03	11.3	6100	5280
CG7906	DRSC29526	12.3	22.4	4299	4417
tweek	DRSC02433	1.85	0.51	5744	5870
tweek	DRSC02434	20	2.3	4485	6644
tweek	DRSC23133	0.72	2.05	6377	6476
Chmp1	DRSC10401	7.94	20.1	6256	5325
Chmp1	DRSC25878	9.69	8.25	6488	5979
Sap130	DRSC09680	0.45	3.15	4642	4031
Sap130	DRSC28079	2.82	6.68	5632	4730
dlp	DRSC10472	2.65	4.14	6072	5923
dlp	DRSC23803	0.73	2.41	6442	6090
JMJD6	DRSC15787	9.96	6.58	6805	6507
JMJD6	DRSC26657	1.43	0.94	5860	6044
CG3225	DRSC00578	25.5		6158	527
CG3225	DRSC30078	3.76	6.87	6199	6241
Pus7	DRSC10703	2.51	1.54	6665	6686
Pus7	DRSC27484	10.9	7.86	5832	5837

Continued; the last 4 above are carried over.
target	amplicon	infection score, replicate 1	infection score, replicate 2	cell count, replicate 1	cell count, replicate 2
CG3225	DRSC00578	25.5		6158	527
CG3225	DRSC30078	3.76	6.87	6199	6241
Pus7	DRSC10703	2.51	1.54	6665	6686
Pus7	DRSC27484	10.9	7.86	5832	5837
CG3764	DRSC10375	15.7	5.18	4503	6793
Pus1	DRSC15548		20.1	375	7273
Pus1	DRSC27461	36.6	25.7	6171	5872
Trs33	DRSC15990	1.1	2.18	5722	6182
CG31636	DRSC02276	3.87	0.52	5376	6192
CG31636	DRSC24911	3.38	2.01	6210	5985
Ptp52F	DRSC06717	16.8	11.4	6627	5795
CG11583	DRSC08202	13.5	12.3	4217	4476
CG11583	DRSC26394	6.19	10	5214	4603
Adck1	DRSC04394	4.53	6.25	6314	6063
Cdk2	DRSC16921	8.73	6.87	3644	3641
CG12490	DRSC04123	8.35	8.62	6733	6731
bgcn	DRSC04062	6.03	7.38	6401	6652
bgcn	DRSC04063	3.04	23.8	6846	6678
CG14695	DRSC14918	2.57	32.2	6530	5576
CG7968	DRSC01903	3.87	9.2	6052	5032
wac	DRSC08349	5.23	3.38	5470	6149
wac	DRSC28973	4.5	21.9	3024	6013
CG18428	DRSC15326	2.8	3.07	6248	6617
CG18428	DRSC29185	15.1	7.73	3962	6401
Peritrophin-15a	DRSC02636	4.31	1.79	5966	6427
Peritrophin-15a	DRSC29171	11.2	14.7	3521	6472
